According to paper PMC12592502, “Unraveling the mechanisms behind the enhanced efficacy of β-lactam-based sideromycins” (Communications Biology, 2025):

System: E. coli MC4100
Experiment: Antibiotic uptake assay (UPLC-MS of culture supernatant)
Assay type: cell-based, Escherichia coli
Conditions: 4-h time point, MHBCA, initial 200 μM

With `N[C@@H](C(=O)N[C@@H]1C(=O)N2C(C(=O)O)=C(Cl)CC[C@H]12)c1ccccc1` [LOR, loracarbef, reference compound] the “drug disappeared from the supernatant” value was “over 194 μM”.
